The structures appear in SMILES notation. The entries are a selection whose mix differs from that of the whole data set. Calls of active or inactive are those of the source. No stated cut-off is given here; in the data, active means inhibition above about 11%; inactive means the rest.

The test can be described thus: growth loss of phage-infected E. coli, primary screen, RecBCD inhibitor project, absorbance, with phage, HTS (AID 651602). To be noted: at 11.9 µM, stronger effect = higher value.
What is called inhibition is the change of the read-out against control, counted positive when it falls. With `CP(=O)(Nc1ccc2c(c1)OCCO2)Oc1ccccc1` (stereo not drawn), the inhibition is inactive: 2.22%.

Take `O=[N+]([O-])c1cc([N+](=O)[O-])c(C(F)(F)F)c([N+](=O)[O-])c1O`: the inhibition was inactive: 0.23%.

In the case of `Cc1ccccc1NP(C)(=O)Nc1ccccc1C`, the inhibition is inactive: 1.19%. To `CP(=O)(Nc1ccc(SC(F)(F)F)cc1)Oc1ccc(F)cc1` (stereo not drawn) belongs inactive: 1%; to `CCOP(=O)(CC)OCC`, inactive: 3.05%. The value for `CCOP(C)(=S)SCC(=O)NC(C)(CC)C(=O)O` (stereo not drawn) was inactive: 2.01%; that for `CP(=O)(Nc1ccc(Cl)cc1)Oc1ccc(F)cc1` (stereo not drawn) was inactive: -0.55%. The value for `CC(C)(C)c1ccc(OP(C)(=O)O)cc1` was inactive: 1.74%; that for `COc1ccccc1OP(C)(=O)Nc1ccccc1Br` (stereo not drawn) was inactive: 4.73%. On to `CN(C)C(=O)c1c([N+](=O)[O-])cc([N+](=O)[O-])cc1[N+](=O)[O-]`, for which the inhibition was inactive: 4.09%. To `COc1ccc(OP(C)(=O)Nc2ccc(Br)cc2)cc1` (stereo not drawn) belongs inactive: 2.61%; to `CCN(CC)CC(O)COC(=O)C(O)(c1ccccc1)C1CCCCC1` (stereo not drawn), inactive: 0.93%; to `CCc1ccc(OP(C)(=O)Nc2cccnc2)cc1` (stereo not drawn), inactive: 1.07%. The value for `CP(=O)(Oc1ccccc1)N1CCOC1=O` (stereo not drawn) was inactive: 2.38%; that for `O=C(OCCCN1CCCC1)C(O)(c1ccccc1)C1CCCCC1` (stereo not drawn) was inactive: -0.84%.

In the case of `COc1ccccc1OP(C)(=O)Nc1c(C)n(C)n(-c2ccccc2)c1=O` (stereo not drawn), the inhibition was inactive: 1.59%. For the molecule `Nc1ccc2c(ccc3cccnc32)n1.O=[N+]([O-])c1cc([N+](=O)[O-])c(O)c([N+](=O)[O-])c1`, the inhibition is inactive: -0.08%. To `CP(=O)(OC12CC3CC(CC(C3)C1)C2)OC12CC3CC(CC(C3)C1)C2` belongs inactive: 2.81%. The value for `CCOC(=O)c1ccc(NP(C)(=O)Oc2ccc(Cl)cc2)cc1` (stereo not drawn) was inactive: 2.62%.

As to `CP(=O)(OCCOc1ccccc1)OCCOc1ccccc1`, the inhibition is inactive: 1.07%.

In the case of `CCCCCCCCCCCCCCCC1C[N+](C)(C)CCOP(C)(=O)O1` (stereo not drawn), the inhibition is inactive: 4.5%. For the molecule `CP(=O)(Nc1ccc(Cl)cc1Cl)Oc1ccccc1` (stereo not drawn), the inhibition was inactive: -1.62%. To `Cc1cc(C)cc(OP(C)(=O)Nc2cccc(C(F)(F)F)c2)c1` (stereo not drawn) belongs inactive: 2.73%; to `O=C1C(O)=C([N+](=O)[O-])C(=O)C(O)=C1[N+](=O)[O-]`, inactive: 1.17%; to `COc1ccc(OP(C)(=O)Nc2ccccc2Br)cc1` (stereo not drawn), inactive: 3.24%. To `COc1ccccc1OP(C)(=O)Nc1ccc(C)c(C)c1` (stereo not drawn) belongs inactive: 2.23%; to `O=[N+]([O-])c1cc([N+](=O)[O-])c(Nc2ccccn2)c([N+](=O)[O-])c1`, inactive: 2.5%; to `Cc1c(NP(C)(=O)Oc2ccc(C(C)C)cc2)c(=O)n(-c2ccccc2)n1C` (stereo not drawn), inactive: 0.92%.

As to `CCc1ccc(OP(C)(=O)O)cc1`, the inhibition was inactive: 1.56%. Regarding `COc1ccccc1OP(C)(=O)Nc1ccc(C)cc1C` (stereo not drawn), the inhibition is inactive: 0%. The value for `CP(=O)(Nc1ccccn1)Oc1ccccc1` (stereo not drawn) was inactive: -1.56%; that for `COc1ccccc1OP(C)(=O)Nc1ccc(Br)cc1` (stereo not drawn) was inactive: 2.47%; that for `CN(C)CCOC(=O)C(O)(c1ccccc1)C1CCCC1` (stereo not drawn) was inactive: 1.14%. On to `COc1ccc(OP(C)(=O)Nc2ccccn2)cc1` (stereo not drawn), for which the inhibition was inactive: 3.28%. To `COc1ccccc1-c1ccccn1.O=[N+]([O-])c1cc([N+](=O)[O-])c(O)c([N+](=O)[O-])c1` belongs inactive: 2.96%; to `CCN(CC)CCCOC(=O)C(O)(c1ccccc1)c1ccccc1`, inactive: 1.66%; to `CCOC(=O)c1ccc(NP(C)(=O)Oc2ccccc2)cc1` (stereo not drawn), inactive: 3.95%. To `Cc1ccc(NP(C)(=O)Oc2ccccc2)c(C)c1` (stereo not drawn) belongs inactive: 1.42%; to `COc1ccccc1OP(C)(=O)Nc1ccc(C)cc1` (stereo not drawn), inactive: 0.83%. For the molecule `COc1ccc(OP(C)(=O)Nc2cccc(F)c2)cc1` (stereo not drawn), the inhibition is inactive: 2.91%. As to `COc1ccccc1OP(C)(=O)Nc1cc(Cl)ccc1C` (stereo not drawn), the inhibition is inactive: 2.79%. To `Cc1cc(C)cc(OP(C)(N)=O)c1` (stereo not drawn) belongs inactive: 1.08%. To `O=[N+]([O-])c1cc([N+](=O)[O-])c(Nc2cccnc2)c([N+](=O)[O-])c1` belongs inactive: -3.27%.

For `Cc1cccc(C)c1OP(C)(N)=O` (stereo not drawn), the inhibition was inactive: 2.59%. On to `CC(C)(C)c1ccc(OP(C)(=O)Nc2ccc(SC(F)(F)F)cc2)cc1` (stereo not drawn), for which the inhibition was inactive: 3.41%. Regarding `O=[N+]([O-])c1ccc2c(c1)C=Nc1ccccc1O2`, the inhibition is inactive: 4.62%. The value for `CP(=S)(Nn1cnnc1)Oc1ccccc1` (stereo not drawn) was inactive: 0.88%. To `COc1ccccc1OP(C)(=O)Nc1ccccc1` (stereo not drawn) belongs inactive: 5.17%; to `CP(=O)(Nc1ccccc1Br)Oc1ccccc1` (stereo not drawn), inactive: 2.93%; to `CCOP(C)(=S)SCC(=O)NC(C)C(=O)O` (stereo not drawn), inactive: 1.67%. To `O=[N+]([O-])c1cc([N+](=O)[O-])c(O)c([N+](=O)[O-])c1.c1ccc(Oc2ccncc2)cc1` belongs inactive: -0.23%; to `CCOC(=O)c1ccc(NP(C)(=O)Oc2ccc(OC)cc2)cc1` (stereo not drawn), inactive: 4.46%. Consider `CP(=O)(Nc1ccccn1)Oc1ccc(Cl)cc1` (stereo not drawn), for which the inhibition is inactive: 0.08%. To `CP(=O)(Oc1ccccc1)OC(c1ccccc1)C(F)(F)F` (stereo not drawn) belongs inactive: -0.38%. Regarding `CP(=O)(Nc1ccc(SC(F)(F)F)cc1)Oc1ccc(Cl)cc1` (stereo not drawn), the inhibition is inactive: 0.54%. The value for `Cc1cccc(C)c1OP(C)(=O)Nc1ccc(SC(F)(F)F)cc1` (stereo not drawn) was inactive: 0.15%.

On to `Cc1cc(C)cc(OP(C)(=O)Nc2ccc(SC(F)(F)F)cc2)c1` (stereo not drawn), for which the inhibition is inactive: 1.03%. To `CCc1ccc(OP(C)(=O)N2CCN(c3ccc([N+](=O)[O-])cc3)CC2)cc1` (stereo not drawn) belongs inactive: -2.42%; to `CP(=O)(NC(=O)Nc1ccccc1)Oc1ccccc1` (stereo not drawn), inactive: 3.27%; to `O=[N+]([O-])c1cc([N+](=O)[O-])c(-c2cnn(-c3ccccc3)c2)c([N+](=O)[O-])c1`, inactive: 3.79%.

With `Cc1nc2ccc3ccccc3c2s1.O=[N+]([O-])c1cc([N+](=O)[O-])c(O)c([N+](=O)[O-])c1`, the inhibition is inactive: 0.16%. For the molecule `O=[N+]([O-])c1cc([N+](=O)[O-])c(-n2nnc3ccccc32)c([N+](=O)[O-])c1`, the inhibition was inactive: 3.65%. The value for `CN(Cc1cccnc1)C(=O)COc1ccc(Cl)c(Cl)c1.O=[N+]([O-])c1cc([N+](=O)[O-])c(O)c([N+](=O)[O-])c1` was inactive: 4.65%. To `CN1CCCCC1COC(=O)C1(O)c2ccccc2CCc2ccccc21` (stereo not drawn) belongs inactive: 1.62%; to `COc1ccccc1OP(C)(=O)Nc1c(C)cccc1C` (stereo not drawn), inactive: 3.09%. The value for `CP(=O)(Nc1ccc(SC(F)(F)F)cc1)Oc1ccccc1` (stereo not drawn) was inactive: 5.59%; that for `CCCOc1ccc(NP(C)(=O)Oc2ccc(Cl)cc2)cc1` (stereo not drawn) was inactive: 5.98%. With `COc1ccc(-c2ccccn2)cc1.O=[N+]([O-])c1cc([N+](=O)[O-])c(O)c([N+](=O)[O-])c1`, the inhibition is inactive: 2.22%.

In the case of `CCOC(=O)C(CC)C1=NC(C)(C)Cc2ccccc21.O=[N+]([O-])c1cc([N+](=O)[O-])c(O)c([N+](=O)[O-])c1` (stereo not drawn), the inhibition was inactive: 1.66%. Turning to `O=[N+]([O-])c1cc([N+](=O)[O-])c(Nc2nnnn2CCO)c([N+](=O)[O-])c1`, the inhibition was inactive: -1.19%. To `CC1=NCCc2c1[nH]c1ccccc21.O=[N+]([O-])c1cc([N+](=O)[O-])c(O)c([N+](=O)[O-])c1` belongs inactive: 1.4%. Consider `O=C(O)c1cccc(Nc2c([N+](=O)[O-])cc([N+](=O)[O-])cc2[N+](=O)[O-])c1`, for which the inhibition is inactive: 1.38%. The value for `CP(=O)(Nc1cccc(Br)c1)Oc1ccccc1` (stereo not drawn) was inactive: 3.25%; that for `Cc1cc(C)cc(OP(C)(=O)Nc2ccccn2)c1` (stereo not drawn) was inactive: 0.24%; that for `Cc1ccc(C)c(NP(C)(=O)Oc2ccccc2)c1` (stereo not drawn) was inactive: 2.03%.

As for `COc1ccccc1OP(C)(=O)Nc1cccc(Br)c1` (stereo not drawn), the inhibition was inactive: 0%. For `Cc1cc(C)cc(OP(C)(=O)Nc2ccc(C)cc2C)c1` (stereo not drawn), the inhibition was inactive: 0.23%. As to `CCOC(=O)c1ccc(NP(C)(=O)Oc2cc(C)cc(C)c2)cc1` (stereo not drawn), the inhibition was inactive: 2.45%.
